Results of unrelated studies side by side (data: NIAID ChemDB).

Shared fields: tests in culture

MIC50, MIC90 and the like: level of inhibition, or share of isolates inhibited.

compound | organism | strain | mutations | cell line | read by | read-out | tested at | value
NC(N)=NS(=O)(=O)c1ccc(N)cc1 | Encephalitozoon cuniculi |  |  | MRC-5 fibroblasts | cytopathic effect | EC50 |  | >50 µg/mL
CC(C)(C)C(=O)OCOP(=O)(COCCn1cnc2c(N)ncnc21)OCOC(=O)C(C)(C)C | Human herpesvirus 6 | GS |  | HSB-2 | antigen / flow cytometry | EC50 |  | 0.53 µM
COC(=O)C1=CCCN(C)C1 | Herpes simplex virus 1 | KOS |  | HeLa | cytopathic effect | EC50 |  | >200 µg/mL
Nc1ncnc2c1ncn2CCOCP(=O)(O)O | Adenovirus | TYPE 2 |  |  |  | MIC |  | >100 µg/mL
CC(=O)OC[C@]12CCC(C)=C[C@H]1O[C@@H]1[C@H](O)[C@@H](OC(C)=O)[C@@]2(C)[C@@]12CO2 | Herpes simplex virus 1 | KOS |  | HeLa | cytopathic effect | EC50 |  | >200 µg/mL
CCO/N=C/c1ccc(OCCC2CCN(c3ccc(C)nn3)CC2)cc1 | Rhinovirus | B632 (LDL receptor group 1B) |  | KB | neutral red | EC50 |  | 0.016 µM
CCc1nc(N)nc(N)c1-c1ccc(Cl)cc1 | Encephalitozoon cuniculi |  |  | MRC-5 fibroblasts | cytopathic effect | inhibition | 20 µg/mL | 1%
CC[C@H](C)[C@H]1NC(=O)[C@@H](NC(=O)[C@@H](CC(C)C)NC)[C@@H](C)OC(=O)[C@H](Cc2ccc(OC)cc2)N(C)C(=O)[C@@H]2CCCN2C(=O)[C@H](CC(C)C)NC(=O)[C@@H](C)C(=O)[C@H](C(C)C)OC(=O)C[C@@H]1O | Dengue virus | TYPE 3 |  | LLC-MK2 | plaque count | inhibition | 2.5 µg/mL | 23.3%
NC[C@H]1O[C@H](O[C@H]2[C@H](O[C@@H]3O[C@H](CO)[C@@H](O)[C@H]3O)[C@@H](O)[C@H](N)C[C@@H]2N)[C@H](N)[C@@H](O)[C@@H]1O | Herpes simplex virus 1 | KOS |  | HeLa | cytopathic effect | EC50 |  | >100 µg/mL
NC[C@@H]1O[C@H](O[C@H]2[C@@H](O)[C@H](O[C@@H]3[C@@H](O)[C@H](N)C[C@H](N)[C@H]3O[C@H]3O[C@H](CO)[C@@H](O)[C@H](O)[C@H]3N)O[C@@H]2CO)[C@H](N)[C@@H](O)[C@@H]1O | Encephalitozoon cuniculi |  |  | MRC-5 fibroblasts | cytopathic effect | EC50 |  | >1000 µg/mL
CN(C)c1cc(NC(=O)CNC(C)(C)C)c(O)c2c1C[C@H]1C[C@H]3[C@H](N(C)C)C(=O)C(C(N)=O)=C(O)[C@@]3(O)C(=O)C1=C2O | Mycobacterium massiliense | V44 |  |  | broth dilution | MIC |  | 2 µg/mL
Cc1ncc([N+](=O)[O-])n1CCO | Encephalitozoon cuniculi |  |  | MRC-5 fibroblasts | cytopathic effect | inhibition | 50 µg/mL | 89%
Nc1ncnc2c1ncn2[C@@H]1C=C(CO)[C@@H](O)[C@H]1O | Semliki Forest virus |  |  |  |  | MIC |  | >10 µg/mL
NC(=O)c1ncn([C@@H]2O[C@H](CO)[C@@H](O)[C@H]2O)n1 | Respiratory syncytial virus | K686 |  | HEP-2 | plaque count | EC50 |  | 6.77 µM
CC[C@H]1OC(=O)[C@H](C)[C@@H](O[C@H]2C[C@@](C)(OC)[C@@H](O)[C@H](C)O2)[C@H](C)[C@@H](O[C@@H]2O[C@H](C)C[C@H](N(C)C)[C@H]2O)[C@](C)(OC)C[C@@H](C)C(=O)[C@H](C)[C@@H](O)[C@]1(C)O | Mycobacterium bolletii | X13 |  |  | broth dilution | MIC |  | 0.5 µg/mL
C[C@H](Cc1ccc(O)c(O)c1)[C@@H](C)Cc1ccc(O)c(O)c1 | Candida albicans | CCC 127-2000 |  |  | broth dilution | MIC50 |  | 125 µg/mL
Nc1ccc(S(=O)(=O)Nc2ncccn2)cc1 | Encephalitozoon cuniculi |  |  | MRC-5 fibroblasts | cytopathic effect | inhibition | 10 µg/mL | 0%
Oc1cc(O)c2c(c1)OC(c1ccc(O)c(O)c1)[C@@H](O)C2 | Candida tropicalis | Clinical isolate 4 |  |  | broth dilution | MIC50 |  | >128 µg/mL
Nc1nccc2c1ncn2C[C@@H](CO)OCP(=O)(O)O | Human herpesvirus 6 | GS |  | HSB-2 | cytopathic effect | EC50 |  | 1.4 µM
CCC(C)n1ncn(-c2ccc(N3CCN(c4ccc(OC[C@H]5CO[C@](Cn6cncn6)(c6ccc(Cl)cc6Cl)O5)cc4)CC3)cc2)c1=O | Candida albicans | Isogenic isolate 15 Erg11 (4-5X) R467K |  |  |  | MIC |  | 0.06 µg/mL
COc1ccc(OC)c(Cc2cnc3nc(N)nc(N)c3c2C)c1 | Encephalitozoon cuniculi |  |  | MRC-5 fibroblasts | cytopathic effect | inhibition | 1 µg/mL | 0%
O=c1[nH]c(=O)n([C@H]2C[C@H](O)[C@@H](CO)O2)cc1/C=C/Br | Human herpesvirus 6 | GS |  | HSB-2 | cytopathic effect | EC50 |  | >1 µM
Nc1nc(N)c2ncn(CCOCP(=O)(O)O)c2n1 | Adenovirus | TYPE 3 |  |  |  | MIC |  | >100 µg/mL
CCCCC/C=C\C/C=C\CCCCCCCC(=O)O | Herpes simplex virus 1 | KOS |  | HeLa | cytopathic effect | EC50 |  | >200 µg/mL
Nc1nc2c(ncn2[C@@H]2C[C@H](CO)[C@H]2CO)c(=O)[nH]1 | Human herpesvirus 6 | GS |  | HSB-2 | cytopathic effect | EC50 |  | 7.4 µM
CN1CCC2(C1)C1CC3CC(C1)CC2C3 | Influenza B virus | B/University of Maryland/1/71 |  |  |  | MIC |  | >25 µg/mL
O=c1[nH]cc(F)c(=O)[nH]1 | Encephalitozoon cuniculi |  |  | MRC-5 fibroblasts | cytopathic effect | inhibition | 0.2 µg/mL | 0%
Nc1nc2c(ncn2C[C@H]2COP(=O)(O)CO2)c(=O)[nH]1 | Human herpesvirus 6 | GS |  | HSB-2 | cytopathic effect | EC50 |  | 6.9 µM
COc1ccc2c(O[C@@H]3C[C@H]4C(=O)N[C@]5(C(=O)NS(=O)(=O)C6CC6)C[C@H]5/C=C\CCCCN(C)C(=O)[C@@H]4C3)cc(-c3nc(C(C)C)cs3)nc2c1C | Hepatitis C virus | K3a/650 |  | Huh7.5 | antigen | EC50 |  | 2.553 µM
C[C@H]1[C@H](O)[C@@H](C)/C=C/C=C/C=C/C=C/C=C/C=C/C=C/[C@H](O[C@@H]2O[C@H](C)[C@@H](O)[C@H](N)[C@@H]2O)C[C@@H]2O[C@](O)(C[C@@H](O)C[C@@H](O)CC[C@H](O)[C@@H](O)C[C@@H](O)CC(=O)O[C@H]1C)C[C@H](O)[C@H]2C(=O)O | Aspergillus fumigatus | 60 isolates |  |  |  | Geometric mean MIC |  | 0.4 µg/mL
CCC[C@H](NC(=O)[C@@H]1[C@H]2CCC[C@H]2CN1C(=O)[C@@H](NC(=O)[C@@H](NC(=O)c1cnccn1)C1CCCCC1)C(C)(C)C)C(=O)C(=O)NC1CC1 | Hepatitis C virus | JFH-1 |  | Huh7.5 | antigen | EC50 |  | 0.516 µM
C#C[C@]1(CO)O[C@@H](n2cnc3c(N)nc(F)nc32)CC1O | HIV-2 | ROD9 | Q151M M184V | MAGIC-5A | β-galactosidase / absorbance | fold resistance |  | 14
Nc1nccc2c1ncn2[C@@H]1C[C@H](CO)[C@@H](O)[C@H]1O | Vesicular stomatitis virus |  |  | HEP-2 | cytopathic effect | EC50 |  | 0.07 µg/mL

Repeating the first 3 entries:

compound | organism | strain | mutations | cell line | read by | read-out | tested at | value
NC(N)=NS(=O)(=O)c1ccc(N)cc1 | Encephalitozoon cuniculi |  |  | MRC-5 fibroblasts | cytopathic effect | EC50 |  | >50 µg/mL
CC(C)(C)C(=O)OCOP(=O)(COCCn1cnc2c(N)ncnc21)OCOC(=O)C(C)(C)C | Human herpesvirus 6 | GS |  | HSB-2 | antigen / flow cytometry | EC50 |  | 0.53 µM
COC(=O)C1=CCCN(C)C1 | Herpes simplex virus 1 | KOS |  | HeLa | cytopathic effect | EC50 |  | >200 µg/mL

ECn: concentration that inhibits the pathogen or its effect by n%. Fold resistance: result on the changed form divided by that on wild type. Blank or dashed fields: not listed here. Conditions beyond the fields shown may differ between rows. Percent inhibition refers to the dose given; in toxicity tests it is the harm to the cells.